Measured values from several laboratories, pooled; numbers as filed in NIAID ChemDB.

Shared fields: tests in culture; organism: Mycobacterium tuberculosis

a–b is a range or a potency band. Percent inhibition refers to the dose given; in toxicity tests it is the harm to the cells. A number after MIC or MFC names an inhibition level or a share of isolates. Blank or dashed fields: not listed here. MIC bound: limit read from a one-dose screen. ECn: concentration that inhibits the pathogen or its effect by n%. Rows are shuffled and stem from different studies.

compound | strain | tested at | endpoint | method | result
O=C(O)c1cn(C2CC2)c2cc(N3CCN(Cc4ccccc4)CC3)c(F)cc2c1=O |  |  | MIC50 |  | 1 µg/mL
C=C1CC[C@]2(C)CC[C@]3(C)C(CCC4[C@@]5(C)CC[C@H](O)C(C)(C)C5CC[C@]43C)C2[C@@H]1C | H37Rv |  | MIC |  | 64 µg/mL
COc1ccc2nc3ccccc3c(Nc3ccc(S(N)(=O)=O)cc3)c2c1 | H37Rv |  | EC50 |  | <6.25 µg/mL
O=c1[nH]cnc2c([C@@H]3O[C@H](CO)[C@@H](O)[C@H]3O)[nH]nc12 | H37Rv | 12.5 µg/mL | inhibition | BACTEC | 7%
CO[C@H]1C=C(C)[C@@H](C)[C@H]2[C@H]3CCC4[C@@]5(C)CC[C@H](O)C(C)(C)[C@@H]5CC[C@@]4(C)[C@]3(C)C[C@H](O)[C@]21C | H37Rv |  | MIC |  | 32 µg/mL
CO/C(=N\N=C\c1ccccc1F)c1ccncc1 | H37Rv |  | MIC |  | >20 µg/mL
CC1S[C@H](c2ccc(Cl)cc2)N(c2nc(N3CCOCC3)n[nH]2)C1=O | H37Rv |  | MIC | resazurin | <6.25 µg/mL
COc1ccc(C)cc1NCc1cnc2nc(N)nc(N)c2c1C | H37Rv |  | MIC |  | 6.25 µg/mL
CCOC(=O)c1ccc(NC(=O)c2cc(Br)ccc2O)cc1 | CNCTC MY331/88 |  | MIC |  | 4 µM
COc1ccc([C@H]2SC(C)C(=O)N2c2nc(N3CCN(C)CC3)n[nH]2)cc1OC | H37Rv |  | MIC | resazurin | 8 µg/mL
OC(/C=C/c1ccccc1)(c1ccccc1)c1nc2ccccc2s1 | H37Rv |  | MIC bound | resazurin | >6.25 µg/mL
COc1nc(C)nc(NC(=O)NS(=O)(=O)c2ccccc2Cl)n1 | P4145 |  | MIC |  | 62 µM
NC1CCC(CC2CCC(NCc3ccc(-c4ccc(Cl)cc4)o3)CC2)CC1 | H37Rv |  | MIC |  | 1.56 µM
COc1ccc2nc3cc(Cl)ccc3c(Nc3ccc(S(=O)(=O)Nc4nc(C)cc(C)n4)cc3)c2c1 | H37Rv |  | EC50 |  | <6.25 µg/mL
CC1S[C@H](c2ccc3c(c2)OCO3)N(c2nc(N3CCN(C)CC3)n[nH]2)C1=O | H37Rv |  | MIC | resazurin | 3.13 µg/mL
c1ccc(Oc2ccc(-c3nnc(-c4cccnc4)o3)cc2)cc1 | H37Rv |  | MIC | resazurin | 1.4 µg/mL
COc1ccc2nc3cc(Cl)ccc3c(Nc3ccc(S(=O)(=O)NC(C)=O)cc3)c2c1 | H37Rv |  | EC50 |  | >6.25 µg/mL
O=C(Nc1cccc(F)c1)c1cc(F)ccc1O | CNCTC MY331/88 |  | MIC |  | 31 µM
Cc1cnc(C)c(SCC(=O)c2ccc(Br)cc2)n1 | H37Rv |  | MIC | BACTEC | ≥12.5 µg/mL
COc1ccc2nc3ccccc3c(Nc3ccc(S(=O)(=O)Nc4ncccn4)cc3)c2c1 | H37Rv |  | EC50 |  | <6.25 µg/mL
CO/C(=N\N=C\c1cccc(F)c1)c1ccncc1 | 6 PI |  | MIC |  | >20 µg/mL
C[N+](C)(C)CCCCCCCCCCC(=O)N/N=C/c1ccc([N+](=O)[O-])o1.[Br-] | H37Rv | 12.5 µg/mL | inhibition | BACTEC | 0%
O=C(O)c1cc(C2CCCC2)nc2ccccc12 | H37Rv |  | MIC |  | >6.25 µg/mL
COC(C)(C)[C@@H](O)CC[C@@H](C)[C@H]1CC[C@@]2(C)[C@@H]3CC[C@H]4C(C)(C)[C@@H](O)CC[C@@]45C[C@@]35CC[C@]12C | H37Rv |  | MIC |  | >64 µg/mL
CCC1CN(c2cc3c(cc2F)c(=O)c(C(=O)O)cn3C2CC2)CCN1 | TN1625 (A90V) |  | MIC |  | 3 µg/mL
S=C(S)N1CC[n+]2c(-c3ccccc3)csc21 | H37Rv | 6.25 µg/mL | inhibition | resazurin | 3%
COc1ccc2nc3ccccc3c(Nc3ccc(S(=O)(=O)Nc4nc(C)cc(C)n4)cc3)c2c1 | H37Rv |  | EC50 |  | <6.25 µg/mL
COc1ccc(/C(C)=N/NC(=O)c2ccncc2)cc1OC | 16PI |  | MIC |  | >20 µg/mL
c1ccc(COc2ccc(CN3CCCN(Cc4ccc(OCc5ccccc5)cc4)CC3)cc2)cc1 | H37Rv |  | MIC |  | 12.5 µM
C[C@@H]1CN(c2c(F)c(N)c3c(=O)c(C(=O)O)cn(C4CC4)c3c2F)C[C@H](C)N1 | 18 isolates |  | MIC90 |  | 0.5 µg/mL
CC1S[C@H](c2ccccc2)N(c2nc(N3CCOCC3)n[nH]2)C1=O | H37Rv |  | MIC | resazurin | 8 µg/mL
CCOC(=O)Cc1ccnc2ccccc12 | H37Rv | 6.25 µg/mL | inhibition |  | 2%
CN1C2C=CC1c1c(C3=NC(C)(C)CO3)cccc12 | H37Rv |  | MIC bound | BACTEC | >12.5 µg/mL
N#Cc1ccc(NC(=O)c2cc(Br)ccc2O)cc1 | CNCTC MY331/88 |  | MIC |  | 4 µM
Cc1ccc([C@H]2SCC(=O)N2c2nc(N3CCOCC3)n[nH]2)cc1 | H37Rv |  | MIC | resazurin | 3.13 µg/mL
CO[C@H]1/C=C/O[C@@]2(C)Oc3c(C)c(O)c4c(O)c(c(/C=N/N5CCN(C)CC5)c(O)c4c3C2=O)NC(=O)/C(C)=C\C=C\[C@H](C)[C@H](O)[C@@H](C)[C@@H](O)[C@@H](C)[C@H](OC(C)=O)[C@@H]1C | P4145 |  | MIC |  | 0.02 µM
CC(C)=CCCC(C)[C@H]1CC[C@]2(C)C3=CC[C@@H]4[C@H](CC[C@H](O)C4(C)C)[C@H]3CC[C@@]12C | H37Rv |  | MIC |  | >64 µg/mL
C[C@@H]1CN(c2c(F)c(N)c3c(=O)c(C(=O)O)cn(C4CC4)c3c2F)C[C@H](C)N1 | TN606 (D94G) |  | EC50 |  | 1.1 µg/mL
CCCN1CCN(c2cc3c(cc2F)c(=O)c(C(=O)O)cn3C2CC2)CC1 |  |  | MIC90 |  | 0.25 µg/mL
CC1(C)CC[C@]2(C)CC=C3[C@]4(C)CCC5C(C)(C)[C@@H](O)CC[C@]5(C)C4CC[C@@]3(C)C2C1 | H37Rv |  | MIC |  | >64 µg/mL
CN1CCN(c2n[nH]c(N3C(=O)CS[C@@H]3c3ccc4c(c3)OCO4)n2)CC1 | H37Rv |  | MIC | resazurin | <1 µg/mL
CCOC(=O)C(=O)CC1=CC=CC2=NC(=O)CCN12 | H37Rv |  | MIC bound | resazurin | >6.25 µg/mL
CN(C)CCCN1c2ccccc2Sc2ccc(Cl)cc21 | 23583 |  | MIC |  | 10 µg/mL
CN1CCN(c2n[nH]c(N3C(=O)CS[C@@H]3c3ccccc3)n2)CC1 | H37Rv |  | MIC | broth dilution | 8 µg/mL
C=CCc1cc(OC)c2c(c1OC)OCO2 | H37Rv |  | MIC bound | BACTEC | >12.5 µg/mL
COc1ccc(/C(C)=N/NC(=O)c2ccncc2)cc1F | 6 PI |  | MIC |  | >20 µg/mL
COP(=O)(c1ccccc1)N1CCN(C2c3ccccc3-c3ccccc32)CC1 | H37Rv |  | MIC | broth dilution | >24.7 µM
CC1(C)CC[C@]2(CO)[C@@H](CO)C[C@]3(C)C(=CC[C@@H]4[C@@]5(C)CC[C@H](O)C(C)(C)[C@@H]5CC[C@]43C)[C@@H]2C1 | H37Rv |  | MIC |  | 32 µg/mL
COC(=O)Cc1cc(C2CCCC2)nc2c(C3CCCC3)cccc12 | H37Rv |  | MIC |  | >6.25 µg/mL
CO/C(=N\N=C\c1cc(OC)ccc1OC)c1ccncc1 | 6 PI |  | MIC |  | >20 µg/mL
NC1CCC(CC2CCC(NCc3ccc(OCc4ccccc4)cc3)CC2)CC1 | H37Rv |  | MIC |  | 1.56 µM
O=C1OCC2C(=O)N3Cc4nc5ccccc5cc4C3OCC12 | H37Rv | 12.5 µg/mL | inhibition | BACTEC | 11%
CC1COc2c(N3CCN(C)CC3)c(F)cc3c(=O)c(C(=O)O)cn1c23 | 55 isolates |  | EC50 |  | <1 µg/mL
COc1ccc2c(c1)[n+]([O-])c(/C(C)=N/NC(=O)c1ccccc1O)c(C)[n+]2[O-] | H37Rv |  | MIC |  | 6.3 µg/mL
COC(=O)c1c(C2CCCC2)nc2ccccc2c1C1CCCC1 | H37Rv |  | MIC |  | 6.25 µg/mL
CCOC(=O)C(C#N)C=Nc1cccc(N(C)C)c1 | H37Rv | 12.5 µg/mL | inhibition | BACTEC | 58%
O=C(O)c1cc(C2C3CC4CC(C3)CC2C4)c2ccccc2n1 | H37Rv |  | MIC |  | >6.25 µg/mL
CP(=O)(c1ccccc1)N1CCN(C2c3ccccc3-c3ccccc32)CC1 | H37Rv |  | MIC | broth dilution | >25.7 µM
C/C(=N\NC(=O)c1ccncc1)c1ccccc1F | H37Rv |  | MIC |  | >20 µg/mL
COC(=O)c1cc(C2C3CC4CC(C3)CC2C4)c2ccccc2n1 | H37Rv | 6.25 µg/mL | inhibition |  | 34%
CC1COc2c(N3CCN(C)CC3)c(F)cc3c(=O)c(C(=O)O)cn1c23 | 5 strains |  | MIC |  | ≥1.25 µg/mL
C/C(=N\NC(=O)c1ccncc1)c1ccc(Cl)cc1Cl | 6 PI |  | MIC |  | >20 µg/mL
CC[C@@]1(OC(=O)CN(C)C)C(=O)OCc2c1cc1n(c2=O)Cc2cc3ccccc3nc2-1 | H37Rv |  | MIC bound | resazurin | >6.25 µg/mL
CCOC(=O)c1ccc(NC(=O)c2ccc(C)cc2O)cc1 | CNCTC MY331/88 |  | MIC |  | 8 µM
c1ccc(Oc2ccc(-c3nnc(-c4ccncc4)o3)cc2)cc1 | H37Rv |  | MIC | resazurin | 1.4 µg/mL
CO/C(=N\N=C\c1ccc(F)cc1)c1ccncc1 | 6 PI |  | MIC |  | >20 µg/mL
Cc1cccc(C)c1NC(=O)C(=O)C(c1ccccc1Cl)S(=O)(=O)Cc1ccccc1Cl | H37Rv | 12.5 µg/mL | inhibition | BACTEC | 0%
CC1=C[C@H](O)[C@@]2(C)C(C3CCC4[C@@]5(C)CC[C@H](O)C(C)(C)C5CC[C@@]4(C)[C@]3(C)C[C@@H]2O)[C@@H]1C | H37Rv |  | MIC |  | >64 µg/mL
Cc1cc2c(C)c3cc(C)c(N)cc3nc2cc1N | H37Rv |  | MIC bound | BACTEC | ≤12.5 µg/mL
CO[C@H]1/C=C/O[C@@]2(C)Oc3c(C)c(=O)c4c(O)c(c5oc6cc(N7CCCC(C)C7)ccc6nc5c4c3C2=O)NC(=O)/C(C)=C\C=C\[C@H](C)[C@H](O)[C@@H](C)[C@@H](O)[C@@H](C)[C@H](OC(C)=O)[C@@H]1C | H37Rv |  | MIC |  | 0.07 µg/mL
O=c1[nH]c2ccccc2c(=O)n1-c1ccccc1 | H37Rv | 6.25 µg/mL | inhibition | resazurin | -13%
CC1COc2c(N3CCN(C)CC3)c(F)cc3c(=O)c(C(=O)O)cn1c23 | Y777 (streptomycin isoniazid rifampicin-resistant) |  | MIC |  | 8 µg/mL
COc1ccc2c3c1OC1C(OC)(OC)C=CC4(Cl)[C@@H](C2)N(C)CC[C@]314 | H37Rv |  | MIC bound | BACTEC | >12.5 µg/mL
CO/C(=N\N=C\c1ccc(OC)c(F)c1)c1ccncc1 | 16PI |  | MIC |  | >20 µg/mL
C=C1C(=O)O[C@H]2/C=C(/C)[C@H](OC(C)=O)[C@@H]3O[C@H]3[C@@](C)(O)C[C@H](OC(=O)/C(C)=C\C)[C@H]12 | H37Rv |  | MIC bound | BACTEC | >12.5 µg/mL
NNC(=O)c1ccncc1 | ATCC35801 |  | MIC |  | 0.12 µM
C=CC1(C)CCC2C(=CCC3C(C)(COC4OC(CO)C(O)C(O)C4O)C(O)CCC23C)C1 | H37Rv |  | MIC bound | BACTEC | >12.5 µg/mL
CO[C@H]1/C=C/O[C@@]2(C)Oc3c(C)c(=O)c4c(O)c(c5oc6cc(N7CCCC7)ccc6nc5c4c3C2=O)NC(=O)/C(C)=C\C=C\[C@H](C)[C@H](O)[C@@H](C)[C@@H](O)[C@@H](C)[C@H](OC(C)=O)[C@@H]1C | H37Rv |  | MIC |  | 0.035 µg/mL
Cc1nc2ccc(NC(=O)c3ccccc3)cc2o1 | H37Rv |  | MIC bound | BACTEC | >6.25 µg/mL
O[C@H](c1cc(C(F)(F)F)nc2c(C(F)(F)F)cccc12)[C@@H]1CCCCN1 | H37Rv |  | MIC |  | 8–16 µg/mL
Cc1nn(C(=O)c2ccncc2)c2c1C(c1ccc(Cl)cc1)SC(N)=N2 | H37Rv |  | MIC bound | resazurin | >6.25 µg/mL
O=C1CS[C@H](c2ccccc2)N1c1nc(N2CCOCC2)n[nH]1 | H37Rv |  | MIC | resazurin | 16 µg/mL

Again, the opening 10 rows:

compound	strain	tested at	endpoint	method	result
O=C(O)c1cn(C2CC2)c2cc(N3CCN(Cc4ccccc4)CC3)c(F)cc2c1=O			MIC50		1 µg/mL
C=C1CC[C@]2(C)CC[C@]3(C)C(CCC4[C@@]5(C)CC[C@H](O)C(C)(C)C5CC[C@]43C)C2[C@@H]1C	H37Rv		MIC		64 µg/mL
COc1ccc2nc3ccccc3c(Nc3ccc(S(N)(=O)=O)cc3)c2c1	H37Rv		EC50		<6.25 µg/mL
O=c1[nH]cnc2c([C@@H]3O[C@H](CO)[C@@H](O)[C@H]3O)[nH]nc12	H37Rv	12.5 µg/mL	inhibition	BACTEC	7%
CO[C@H]1C=C(C)[C@@H](C)[C@H]2[C@H]3CCC4[C@@]5(C)CC[C@H](O)C(C)(C)[C@@H]5CC[C@@]4(C)[C@]3(C)C[C@H](O)[C@]21C	H37Rv		MIC		32 µg/mL
CO/C(=N\N=C\c1ccccc1F)c1ccncc1	H37Rv		MIC		>20 µg/mL
CC1S[C@H](c2ccc(Cl)cc2)N(c2nc(N3CCOCC3)n[nH]2)C1=O	H37Rv		MIC	resazurin	<6.25 µg/mL
COc1ccc(C)cc1NCc1cnc2nc(N)nc(N)c2c1C	H37Rv		MIC		6.25 µg/mL
CCOC(=O)c1ccc(NC(=O)c2cc(Br)ccc2O)cc1	CNCTC MY331/88		MIC		4 µM
COc1ccc([C@H]2SC(C)C(=O)N2c2nc(N3CCN(C)CC3)n[nH]2)cc1OC	H37Rv		MIC	resazurin	8 µg/mL